These results are taken from US20230399384A1 (University of Texas, published 2023).

The assay has as its target T1, S protein of MERS-CoV (MERS-CoV, UniProt K9N5Q8 18-1296).
T1 sequence: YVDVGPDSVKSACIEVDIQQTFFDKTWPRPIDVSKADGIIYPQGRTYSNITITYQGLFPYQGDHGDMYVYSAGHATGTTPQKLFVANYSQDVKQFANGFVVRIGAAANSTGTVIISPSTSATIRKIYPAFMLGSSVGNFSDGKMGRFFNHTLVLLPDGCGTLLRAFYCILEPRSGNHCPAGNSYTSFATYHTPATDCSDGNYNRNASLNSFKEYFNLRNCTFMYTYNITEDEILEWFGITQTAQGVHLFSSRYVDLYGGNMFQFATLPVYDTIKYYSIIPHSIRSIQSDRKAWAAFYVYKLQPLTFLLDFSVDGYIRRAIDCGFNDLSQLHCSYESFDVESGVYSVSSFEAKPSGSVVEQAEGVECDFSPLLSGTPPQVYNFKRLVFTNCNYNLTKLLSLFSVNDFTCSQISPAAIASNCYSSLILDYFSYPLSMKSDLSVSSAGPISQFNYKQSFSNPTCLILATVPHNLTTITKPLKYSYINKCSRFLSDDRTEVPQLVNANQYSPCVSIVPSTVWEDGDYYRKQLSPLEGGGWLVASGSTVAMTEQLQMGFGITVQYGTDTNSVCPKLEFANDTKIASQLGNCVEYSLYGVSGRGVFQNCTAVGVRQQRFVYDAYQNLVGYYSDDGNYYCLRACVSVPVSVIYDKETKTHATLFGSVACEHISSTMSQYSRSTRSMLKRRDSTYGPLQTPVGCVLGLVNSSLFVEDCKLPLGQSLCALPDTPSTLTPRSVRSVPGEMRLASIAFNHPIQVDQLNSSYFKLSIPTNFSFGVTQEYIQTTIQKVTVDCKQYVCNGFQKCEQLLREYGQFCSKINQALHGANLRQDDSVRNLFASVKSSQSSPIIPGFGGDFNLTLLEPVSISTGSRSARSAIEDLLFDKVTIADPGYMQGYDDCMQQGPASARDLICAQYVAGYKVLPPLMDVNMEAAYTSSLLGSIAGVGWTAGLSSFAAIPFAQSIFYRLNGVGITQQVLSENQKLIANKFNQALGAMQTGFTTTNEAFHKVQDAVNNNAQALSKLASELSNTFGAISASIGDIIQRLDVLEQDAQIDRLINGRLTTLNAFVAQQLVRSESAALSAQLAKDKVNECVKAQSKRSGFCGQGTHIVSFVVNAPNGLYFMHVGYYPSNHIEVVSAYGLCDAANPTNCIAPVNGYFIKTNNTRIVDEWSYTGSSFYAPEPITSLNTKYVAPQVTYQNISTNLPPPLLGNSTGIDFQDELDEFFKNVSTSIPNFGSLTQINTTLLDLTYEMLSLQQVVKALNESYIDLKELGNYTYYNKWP
The assay is described as follows: BLI (Octet RED96): mAb on Protein A biosensors, S protein in solution [panel D].

B1: CoV2-12 (antibody, V domains shown)
VH: QVQLVESGGGVVQPGRSLRLSCVASGFTFSSYAMQWVRQAPGKGLEYVAVVSDDGNMKFYADSVKGRFTISRDNSRNTVSLQMNSLGVEDTAVYYCARENYFWSGSIGGLDYWGQGTLVSVSS
VL: not shown
B1: the binding result is given as “no binding”.
